Compound potency records, mixed from different reports. Data source: NIAID ChemDB in PubChem.

Common to all: tests in culture; species: HIV-1

ECn: concentration that inhibits the pathogen or its effect by n%. a–b is a range or a potency band. Blank or dashed fields: not listed here. Conditions beyond the fields shown may differ between rows.

SMILES,strain,cell line,changes,setting,read-out,method,value
CCCc1cc(=O)oc2c3c(c4c(c12)OC(C)(C)C=C4)O[C@H](C)[C@@H](C)[C@@H]3O,CLADE E,PBMC,-,-,EC50,RT activity,0.03 µM
CCC(C)Oc1cc(N)nc(S(=O)(=O)c2ccc(Cl)cc2)n1,IIIB,MT-4,-,-,EC50,cytopathic effect / MTT,>82 µM
O=c1[nH]cnc2c1ncn2[C@H]1CC[C@@H](CO)O1,RTMC(184) (RT D67N K70R M184V T215F K219Q),HT4 + HT4 LacZ-1,RT-D67N K70R M184V T215F K219Q,-,EC50,plaque count,3.02 µM
Cc1cn([C@H]2C[C@H](N=[N+]=[N-])[C@@H](COP(=O)(OCCCCCCCCN(C)CCN(C)C)OC[C@H]3OC(O)[C@H](O)[C@@H](O)[C@@H]3O)O2)c(=O)[nH]c1=O,LAI,CEM + CEM-4,-,-,EC50,RT activity,0.05 µM
Cc1cn([C@H]2C[C@H](N=[N+]=[N-])[C@@H](CO)O2)c(=O)[nH]c1=O,TM,PBMC,MDR,-,EC50,p24,0.1 µM
Cc1cn([C@H]2C[C@H](N=[N+]=[N-])[C@@H](CO)O2)c(=O)[nH]c1=O,IIIB,CEM + CEM-SS,-,-,EC50,cytopathic effect / XTT,0.003 µM
CC(C)(C)NC(=O)[C@@H]1C[C@@H]2CCCC[C@@H]2CN1C[C@@H](O)[C@H](Cc1ccccc1)NC(=O)[C@H](CC(N)=O)NC(=O)c1ccc2ccccc2n1,NL4-3 B,MT-4,-,-,EC50,cytopathic effect / MTT,0.0034 µM
COc1ccc(C[C@H](NC(=O)c2cccc(O)c2C)[C@H](O)C(=O)N2CSC(C)(C)[C@H]2C(=O)NCc2c(C)cccc2C)cc1,IIIB,CEM,-,15% FBS,EC50,cytopathic effect / XTT,0.0076 µM
Cc1cn([C@H]2C[C@H](N=[N+]=[N-])[C@@H](COP(=O)(O)OCCCCCCCCN(C)CCN(C)C)O2)c(=O)[nH]c1=O,LAI,CEM + CEM-4,-,-,EC50,cytopathic effect / MTT,0.11 µM
CC(C)CN(C[C@@H](O)[C@H](Cc1ccccc1)NC(=O)O[C@H]1CCOC1)S(=O)(=O)c1ccc(N)cc1,1026-40 PI-resistant,PBMC,PR-L10I M46I I54V L63P A71V V82A L90M,-,EC50,RT activity,0.752 µM
O=C(Nc1cc(S(=O)(=O)O)cc2cc(S(=O)(=O)O)c(N=Nc3ccc(N=Nc4c(S(=O)(=O)O)cc5cc(S(=O)(=O)O)cc(NC(=O)c6cccc(Cl)c6Cl)c5c4O)cc3)c(O)c12)c1ccc(Cl)cc1Cl,RF,MT-2,-,-,EC90,-,0.8–1 µg/mL
Cc1cc(C)c(-n2nnnc2SCC(=O)Nc2ccc(OCCCN(C)C)cc2Cl)c(C)c1,-,MT-4,-,50% human serum,EC50,p24,<0.2 µM
CC(C)c1c(COC(N)=O)cn(Cc2ccncc2)c1Sc1ccccc1,-,C8166,RT-Y181C,-,EC90,p24,>100 µM
Cc1c(O)cccc1C(=O)N[C@@H](CSc1ccccc1)[C@H](O)CN1C[C@H]2CCCC[C@H]2C[C@H]1C(=O)NC(C)(C)C,TM,PBMC,MDR,-,EC50,p24,>1 µM
CCC(C)Oc1cc(=O)[nH]c(S(=O)(=O)c2ccccc2Cl)n1,IIIB,MT-4,-,-,EC50,cytopathic effect / MTT,52 µM
Cc1cn([C@H]2C[C@H](N=[N+]=[N-])[C@@H](CO)O2)c(=O)[nH]c1=O,IIIB,H9,-,-,EC50,-,>100 µM
Nc1nc(=O)n([C@@H]2CS[C@H](CO)O2)cc1F,HXB2,HT4 + HT4 LacZ-1,RT-Y181C,-,EC50,plaque count,0.02 µM
COC(=O)/C=C/Cn1c(=O)c(C)cn([C@@H]2O[C@H](CO[Si](C)(C)C(C)(C)C)C3(OS(=O)(=O)C=C3N)[C@H]2O[Si](C)(C)C(C)(C)C)c1=O,-,-,-,-,EC50,-,0.03–0.76 µM
Cc1cccc(C)c1OCC(=O)N[C@@H](Cc1ccccc1)[C@@H](O)C[C@H](Cc1ccccc1)NC(=O)[C@H](C(C)C)N1CCCNC1=O,IIIB,PBMC,-,-,EC50,RT activity,0.0013 µM
CC(C)c1c(CO)cn(Cc2ccncc2)c1Sc1cc(Cl)cc(Cl)c1,IIIB,MT-4,-,-,EC50,cytopathic effect / MTT,0.03 µM
Cc1cc(C)c(-n2nnnc2SCC(=O)Nc2ccc(C(N)=O)cc2C)c(C)c1,-,MT-4,-,50% human serum,EC50,p24,<0.062 µM
Cc1cn([C@@H]2O[C@H](CO[Si](C)(C)C(C)(C)C)C3(OS(=O)(=O)C=C3N)[C@H]2O[Si](C)(C)C(C)(C)C)c(=O)n(/C=C/CO)c1=O,-,-,-,-,EC50,-,0.03–0.76 µM
C=CCOCn1c(Cc2cc(C)cc(C)c2)c(CC)c(=O)[nH]c1=O,HXB2,MT-4,-,-,EC50,cytopathic effect / MTT,0.003 µM
CCC(C)Oc1cc(=O)[nH]c(S(=O)(=O)c2cc(C)cc(C)c2)n1,IIIB,MT-4,-,-,EC50,cytopathic effect / MTT,6.6 µM
CCCc1cc(=O)oc2c3c(c4c(c12)OC(C)(C)C=C4)O[C@@H](C)[C@H](C)[C@@H]3O,NL4-3,CEM + CEM-SS,-,-,EC50,XTT,0.2 µM
CC1CCCCN1CCCNCc1ccc(CCNCCCN2CCOCC2)cc1,-,MT-4,-,-,EC50,MTT,1.695 µM
O=C1c2ccccc2C2(c3ccccc3)SCCN12,D79,PBMC,-,-,EC50,p24 / ELISA,0.058 µM
Cc1cc(C)c(-n2nnnc2SCC(=O)Nc2ccc([N+](=O)[O-])cc2)c(C)c1,-,MT-4,-,50% human serum,EC95,p24,>5 µM
COc1ccccc1CN[C@H]1C2CCN(CC2)[C@H]1C(c1ccccc1)c1ccccc1,CSF-8 Primary R5 isolate,Macrophage + Monocytes/macrophages,-,-,EC50,RT activity,<0.1 µM
CC(C)c1nc(CN(C)C(=O)N[C@H](C(=O)N[C@@H](Cc2ccccc2)C[C@H](O)[C@H](Cc2ccccc2)NC(=O)OCc2cncs2)C(C)C)cs1,NL4-3 B,MT-4,-,-,EC50,cytopathic effect / MTT,0.044 µM
Fc1cccc(F)c1C1SCc2nc3ccccc3n21,McK,CEM + CEM-SS,-,-,EC50,cytopathic effect / XTT,0.66 µM
CCc1c(Sc2ccccn2)n(COCc2ccccc2)c(=O)[nH]c1=O,IIIB,CEM + CEM-SS,-,-,EC50,cytopathic effect / XTT,0.008 µM
Cc1c(O)cccc1C(=O)N[C@@H](CSc1ccccc1)[C@H](O)CN1C[C@H]2CCCC[C@H]2C[C@H]1C(=O)NC(C)(C)C,052-52 PI-resistant,PBMC,PR-L10R M46I L63P A71V V82T I84V,-,EC50,RT activity,0.176 µM
Cc1cc(C)c(-n2nnnc2SCC(=O)Nc2ccc(C(=O)NCCCN(C)C)cc2Cl)c(C)c1,-,MT-4,-,50% human serum,EC50,p24,<0.062 µM
Cc1cn([C@@H]2O[C@H](CO[Si](C)(C)C(C)(C)C)C3(OS(=O)(=O)C=C3N)[C@H]2O[Si](C)(C)C(C)(C)C)c(=O)n(CCC2C=Nc3ccccc32)c1=O,-,-,-,-,EC50,-,0.03–0.76 µM
Cc1ccc(-n2nnnc2SCC(=O)Nc2ccccc2[N+](=O)[O-])c(Br)c1,-,MT-4,-,10% FBS,EC50,p24,<0.008 µM
c1cc(CCNCCN2CCCC2)ccc1CCNCCN1CCCC1,-,MT-4,-,-,EC50,MTT,1.42 µM
CCC(C)Oc1nc(N)cc(Sc2ccccc2)n1,IIIB,MT-4,-,-,EC50,cytopathic effect / MTT,>80 µM
CCc1c(Sc2ccccn2)n(COCc2ccccc2)c(=O)[nH]c1=O,Costatolide-resistant (RT L100I T139I),CEM + CEM-SS,RT-L100I T139I,-,EC50,XTT,3 µM
CC1CCCCN1CCCNCCc1ccc(CNCCCN2CCCCC2C)cc1,-,MT-4,-,-,EC50,MTT,0.114 µM
CCCn1c(=O)c(C)cn([C@@H]2O[C@H](CO[Si](C)(C)C(C)(C)C)C3(OS(=O)(=O)C=C3N)[C@H]2O[Si](C)(C)C(C)(C)C)c1=O,-,-,-,-,EC50,-,0.03–0.76 µM
Cc1ccnc2c1NC(=O)c1cccnc1N2C1CC1,NNRTI-resistant (RT K103N P225H),MAGI,RT-K103N P225H,-,EC50,β-galactosidase,9.6 µM
c1ccc2c(c1)sc1nccn12,IIIB,Macrophage,-,-,EC50,cytopathic effect / XTT,1.8 µM
COc1cccc(C[C@H](NC(=O)c2cccc(O)c2C)[C@H](O)C(=O)N2CSC(C)(C)[C@H]2C(=O)NCc2c(C)cccc2C)c1,IIIB,CEM,-,15% FBS,EC50,cytopathic effect / XTT,0.0024 µM
O=c1cc(Cl)nc(Sc2ccccc2)[nH]1,IIIB,MT-4,-,-,EC50,cytopathic effect / MTT,>186 µM
Cc1cn([C@H]2C[C@H](N=[N+]=[N-])[C@@H](CO)O2)c(=O)[nH]c1=O,NL4-3(RT-4XAZT),CEM + CEM-SS,RT-D67N K70R T215Y K219Q,-,EC50,cytopathic effect / XTT,0.8 µM
CC(C)c1c(CO)cn(Cc2ccncc2)c1Sc1ccccc1,-,-,RT-K103N,-,EC50,cytopathic effect / MTT,<9.6 µM
O=S1(c2ccccc2)=NC(=S)Nc2ccccc21,IIIB,CEM + CEM-SS,-,-,EC50,cytopathic effect / XTT,1.39 µM
Cc1cccc(C)c1CNC(=O)[C@H]1N(C(=O)[C@@H](O)[C@H](Cc2ccc3c(c2)OCO3)NC(=O)c2cccc(O)c2C)CSC1(C)C,IIIB,CEM,-,50% human serum,EC50,cytopathic effect / XTT,0.014 µM
CCCCN1C(=O)C(CC2CCCCC2)NC(=O)C12CCN(Cc1cnc(-c3ccccc3)[nH]1)CC2,BaL,PBMC,-,-,EC50,p24,0.24 µM
COC(=O)CCCCn1c(=O)c(C)cn([C@@H]2O[C@H](CO[Si](C)(C)C(C)(C)C)C3(OS(=O)(=O)C=C3N)[C@H]2O[Si](C)(C)C(C)(C)C)c1=O,-,-,-,-,EC50,-,0.03–0.76 µM
CC[C@H](C)C(=O)O[C@H]1C[C@@H](C)C=C2C=C[C@H](C)[C@H](CC[C@@H]3C[C@@H](O)CC(=O)O3)[C@H]21,92US151 R5X4 clinical variant,PBMC,-,-,EC50,p24,<50 µM
c1cc(CNCCCN2CCCC2)ccc1CCNCCCN1CCOCC1,-,MT-4,-,-,EC50,MTT,9.725 µM
NC(=O)NO,IIIB,CEM,-,-,EC50,p24,>100 µM
CCOCn1c(Cc2ccccc2)c(C(C)C)c(=O)[nH]c1=O,IIIB,MT-4,-,-,EC50,cytopathic effect / MTT,0.02 µM
Cc1cc(C)c(-n2nnnc2SCC(=O)Nc2c(Cl)cccc2Cl)c(C)c1,-,MT-4,-,10% FBS,EC95,p24,>5 µM
Cc1ccnc2c1NC(=O)c1cccnc1N2C1CC1,Costatolide-resistant (RT L100I T139I),CEM + CEM-SS,RT-L100I T139I,-,EC50,XTT,0.2 µM
c1cc(CN2CCCNCCNCCCNCC2)ccc1CN1CCCNCCNCCCNCC1,MOKW,PBMC,-,-,EC50,p24,>1 µM
CC(C)c1c(COC(N)=O)cn(Cc2ccncc2)c1Sc1cc(Cl)cc(Cl)c1,-,C8166,RT-Y181C,-,EC90,p24,20 µM
c1cc(CNCCN2CCCC2)ccc1CNCCN1CCCC1,-,MT-4,-,-,EC50,MTT,30.9 µM
O=c1[nH]cnc2c1ncn2[C@H]1CC[C@@H](CO)O1,MM,PBMC,MDR,-,EC50,p24,3.9 µM
O=C(Cc1ccc(CNCCCN2CCCCC2)cc1)NCCCN1CCCCC1,-,MT-4,-,-,EC50,MTT,2.539 µM
Cc1cn([C@H]2C[C@H](N=[N+]=[N-])[C@@H](CO)O2)c(=O)[nH]c1=O,IIIB,PBMC,-,-,EC50,p24 / ELISA,0.026 µM